Results taken from paper PMC10296771, “Glycosylation of H4 influenza strains with pandemic potential and susceptibilities to lung surfactant SP-D” (2023).

Biological target: Dodecameric human SP-D neck and carbohydrate domains with [change] and [change] mutations, biotinylated (human)
Test: SPR

## Hemagglutinin (H3) of A/NY/470/2004 (H3N2), on whole virus (natural protein)
  pKd: 6.92

pKd: −log10 of the molar value.
